Compound potency records, mixed from different reports. Data source: NIAID ChemDB in PubChem.

Shared fields: growth or infection tests; species: HIV-1; cell line: CEM + CEM-SS; endpoint: EC50

Lines come from different laboratories, so protocols vary. ECn: concentration that inhibits the pathogen or its effect by n%. Blank or dashed fields: not listed here.

structure | strain | mutations | read by | result
O=C(O)c1cccc(SS(=O)(=O)c2cccc(C(=O)O)c2)c1 | RF | - | cytopathic effect / XTT | 9.4 µM
CCc1c(C(=O)c2cc(C)cc(C)c2)n(CC2CC=CC2)c(=O)[nH]c1=O | NL4-3 | RT-Y181C | cytopathic effect / XTT | 0.009 µM
Cc1cn([C@H]2C[C@H](N=[N+]=[N-])[C@@H](CO)O2)c(=O)[nH]c1=O | G762-3 | - | cytopathic effect / XTT | 2.6 µM
O=c1c2cccn2c2ccccc2n1CCNC(=S)Nc1ccc(Cl)cn1 | IIIB | - | cytopathic effect / MTT | 0.031 µM
O=c1[nH]cc(N=Nc2ccc(S(=O)(=O)Nc3ccccn3)cc2)cc1O | RF | - | cytopathic effect / XTT | >86 µM
Cc1c(O)cccc1C(=O)N[C@@H](Cc1ccccc1)[C@H](O)C(=O)N1CSC(C)(C)[C@H]1C(=O)NC(C)(C)C | IIIB | - | - | 0.02 µM
Nc1nc(Cl)nc2c1ncn2[C@@H]1C[C@@H](F)[C@H](CO)O1 | - | - | RT activity | >10 µM
Cc1cn([C@H]2C[C@H](N=[N+]=[N-])[C@@H](CO)O2)c(=O)[nH]c1=O | IIIB | - | plaque count | 0.005 µM
Nc1c(Br)cc2c([nH]c(=O)c3cc(Br)ccc32)c1Br | RF | - | cytopathic effect / XTT | >39 µM
CCCc1cc(=O)oc2c3c(c4c(c12)OC(C)(C)C=C4)O[C@@H](C)[C@H](C)[C@@H]3O | Thiazolobenzimidazole-resistant (RT V108I) | RT-V108I | XTT | 4.4 µM
CC(=O)NC1CN=C(SSC2=NCC(NC(C)=O)S2)S1 | RF | - | cytopathic effect / XTT | 37.6 µM
CC(C)(C)NC(=O)[C@H]1N(C(=O)[C@@H](O)[C@H](Cc2ccccc2)NC(=O)[C@H](CC(N)=O)NC(=O)COc2cccc(Nc3ccccc3)c2)CSC1(C)C | IIIB | PR-V32I L33F K45I F53L A71V I84V | - | 0.04 µM
Cn1cc(N)cc1C(=O)Nc1cc(C(=O)Nc2ccc3cc(S(=O)(=O)O)cc(S(=O)(=O)O)c3c2)n(C)c1 | N119 | - | cytopathic effect / XTT | 7 µM
Nc1n[nH]c(=O)c2c1ncn2[C@H]1C[C@H](O)[C@@H](CO)O1 | RF | - | cytopathic effect / MTT | 89.2 µM
CCCc1cc(=O)oc2c3c(c4c(c12)OC(C)(C)C=C4)O[C@H](C)[C@@H](C)[C@@H]3O | 3TC-resistant (RT M184V) | RT-M184V | XTT | 0.3 µM
CC(C)(C)OC(=O)N[C@@H](Cc1ccccc1)[C@H](O)CNC[C@@H](O)[C@H](Cc1ccccc1)NC(=O)C(C)(O)C(C)(C)C | RF | - | cytopathic effect / XTT | 0.06 µM
CC1(C)CC(=O)C2=C(C1)NC(SSC1=C(C#N)C(c3ccc(F)cc3)C3=C(CC(C)(C)CC3=O)N1)=C(C#N)C2c1ccc(F)cc1 | RF | - | cytopathic effect / XTT | 3.4 µM
O=[N+]([O-])c1cccc(Cn2c(Cl)nc3cc(Cl)c(Cl)cc32)c1 | IIIB | - | plaque count / syncytia | 27 µM
Cc1cn([C@H]2C[C@H](N=[N+]=[N-])[C@@H](CO)O2)c(=O)[nH]c1=O | IIIB | - | cytopathic effect / MTT | 0.0019 µM
Nc1nc(Cl)nc2c1ncn2[C@H]1O[C@@H](CO)[C@@H](O)[C@@H]1O | - | - | RT activity | >10 µM
Nc1ccn([C@H]2CC[C@@H](CO)O2)c(=O)n1 | RF | - | cytopathic effect / MTT | 0.0947 µM
CCCCNP(=O)(OC[C@@H]1O[C@H](n2cc(C)c(=O)[nH]c2=O)C[C@H]1N=[N+]=[N-])OC[C@H]1O[C@@H](n2cc(C)c(=O)[nH]c2=O)C[C@@H]1N=[N+]=[N-] | LAI | - | RT activity | 0.34 µM
O=S(=O)(O)c1cc(O)c(N=NC2S(=O)(=O)OCCOS2(=O)=O)c2ccccc12 | RF | - | cytopathic effect / XTT | >78 µM
Cc1ccccc1CNC(=O)[C@H]1N(C(=O)[C@@H](O)[C@H](Cc2ccccc2)NC(=O)c2ccc(F)c(O)c2C)CSC1(C)C | IIIB | - | cytopathic effect / XTT | 0.055 µg/mL
O=c1c2cccn2c2cc(Cl)c(Cl)cc2n1CCNC(=S)Nc1ccc(Br)cn1 | IIIB | - | cytopathic effect / MTT | 3.7 µM
Nc1ncnc2c1ncn2C=C1CC1CO | - | - | - | 17 µM
COS(=O)CCOC(=O)c1ccccc1SSc1ccccc1C(=O)OCCS(=O)OC | RF | - | cytopathic effect / XTT | 96.2 µM
O=C(NC(=O)c1cn(CCN2CCNCC2)c(=O)[nH]c1=O)OCc1ccccc1 | RF | - | cytopathic effect / XTT | >40 µM
CCCCCCCCCCCCSCC(COP(=O)([O-])OCC[N+](C)(C)C)OCCCCCCCCC(=O)OCC(=O)OC[C@H]1O[C@@H](n2cc(C)c(=O)[nH]c2=O)C[C@@H]1N=[N+]=[N-] | IIIB WT | - | plaque count | 0.008 µM
Nc1nc2cc(Cl)c(Cl)cc2n1Cc1ccc(Cl)cc1 | IIIB | - | plaque count / syncytia | 10 µM
Cc1cn([C@H]2C[C@H](N=[N+]=[N-])[C@@H](CO)O2)c(=O)[nH]c1=O | - | - | - | 0.003 µM
CC(=O)NCCSS(=O)(=O)CCCCS(=O)(=O)SCCNC(C)=O | RF | - | cytopathic effect / XTT | 127.4 µM
CC(C)=CCOc1cc(NC(=S)c2ccsc2C)ccc1Cl | IIIB | - | XTT | 0.05 µM
NC(=O)CSSCC(N)=O | RF | - | cytopathic effect / XTT | 12.9 µM
CC1=C(C(=O)Nc2ccc(Cl)c(C(=O)OC(C)C)c2)SCCO1 | IIIB | - | - | 2.4 µM
Cc1cc(C(=O)O)c(C)cc1SSc1cc(C)c(C(=O)O)cc1C | RF | - | cytopathic effect / XTT | 28.4 µM
CCC(C)[C@H]1C(=O)O[C@H](C(C)C)C(=O)N(C)[C@@H](C(C)C)C(=O)O[C@H](C(C)C)C(=O)N(C)[C@@H](C(C)C)C(=O)O[C@H](C(C)C)C(=O)N1C | - | - | cytopathic effect / XTT | 0.01 µg/mL
CCCCCC(=O)c1c(O)cc2c(c1O)C(=O)c1c(O)cc(O)cc1C2=O | RF | - | cytopathic effect / XTT | >65 µM
CCCCCCCCCCCCCCCCCC(=O)NCC(CO)OCC | IIIB | - | plaque count | >100 µM
FC(F)(F)c1cc(Cn2c(Br)nc3cc(Cl)c(Cl)cc32)cc(C(F)(F)F)c1 | IIIB | - | plaque count / syncytia | 5.9 µM
O=C(Nc1ccc(C(=O)O)c(O)c1)c1ccc(C(=O)Nc2ccc(O)c(C(=O)O)c2)cc1 | RF | - | cytopathic effect / XTT | >140.1 µM
Cc1cn([C@H]2C[C@H](N=[N+]=[N-])[C@@H](CO)O2)c(=O)[nH]c1=O | IIIB | - | cytopathic effect | 0.0048 µM
Nc1cc(S(N)(=O)=O)ccc1SSc1ccc(S(N)(=O)=O)cc1N | RF | - | cytopathic effect / XTT | 18 µM

Repeating the first 2 entries:

structure,strain,mutations,read by,result
O=C(O)c1cccc(SS(=O)(=O)c2cccc(C(=O)O)c2)c1,RF,-,cytopathic effect / XTT,9.4 µM
CCc1c(C(=O)c2cc(C)cc(C)c2)n(CC2CC=CC2)c(=O)[nH]c1=O,NL4-3,RT-Y181C,cytopathic effect / XTT,0.009 µM